Results of unrelated studies side by side (data: NIAID ChemDB).

Shared fields: growth or infection tests

Zones are inhibition diameters on agar.

structure,species,cell line,changes,method,strain or isolate,endpoint,tested at,result
CCCN1CCN(c2cc(=O)c3nc4c(oc3c2)c2c(=O)c3c(O)c(C)c5c(c34)=C(O)[C@@](C)(O/C=C/[C@H](OC)[C@@H](C)[C@@H](OC(C)=O)[C@H](C)[C@H](O)[C@H](C)[C@@H](O)[C@@H](C)/C=C/C=C(/C)C(=O)N2)O5)CC1,Staphylococcus aureus,,,,20 strains (methicillin-resistant),MIC50,,0.0039 µg/mL
Nc1ncnc2c1ncn2C[C@H](O)CO,Epstein-Barr virus,P3HR-1,,,,inhibition,10 µM,6%
COc1cc(Cc2cnc(N)nc2N)cc(OC)c1OC,Mycobacterium ulcerans,,,,Isolate 8756,MIC,,>16 µg/mL
CN(C)c1cc(NC(=O)CNC(C)(C)C)c(O)c2c1C[C@H]1C[C@H]3[C@H](N(C)C)C(=O)C(C(N)=O)=C(O)[C@@]3(O)C(=O)C1=C2O,Mycobacterium massiliense,,,broth dilution,X38,MIC,,1 µg/mL
COc1cc2c(cc1OC)C1OCCCN1c1c-2ccc2cc3c(cc12)OCO3,Saccharomyces cerevisiae,,,,JHY6-1C,MIC,,50 µg/mL
Nc1nc2c(ncn2COC(CO)CO)c(=O)[nH]1,Varicella zoster virus,HEL,,plaque count,PMEDAP-resistant,EC50,,0.043 µg/mL
Nc1ccn(C[C@@H](CO)OCP(=O)(O)O)c(=O)n1,Adenovirus,,,cytopathic effect,adenoid 75 (TYPE 5),EC50,,45 µg/mL
CC[C@@]1(O)C(=O)OCc2c1cc1n(c2=O)Cc2cc3ccccc3nc2-1,Saccharomyces cerevisiae,,,,Mutant ΔERG6,MIC,,6.25 µg/mL
C#Cc1c(C(N)=O)ncn1[C@@H]1O[C@H](CO)[C@@H](O)[C@H]1O,Respiratory syncytial virus,HeLa,,plaque count,TYPE A/NS-100,EC50,,0.13 µg/mL
CO[C@H]1/C=C/O[C@@]2(C)Oc3c(C)c(O)c4c(O)c(c(/C=N/N5CCN(C)CC5)c(O)c4c3C2=O)NC(=O)/C(C)=C\C=C\[C@H](C)[C@H](O)[C@@H](C)[C@@H](O)[C@@H](C)[C@H](OC(C)=O)[C@@H]1C,Staphylococcus aureus,,,,20 strains (methicillin-susceptible),MIC90,,0.0078 µg/mL
C[C@@H](c1nc(-c2ccc(C#N)cc2)cs1)[C@](O)(Cn1cnnc1)c1ccc(F)cc1F,Candida albicans,,,,Isogenic isolate 15 Erg11 (4-5X) R467K,MIC,,0.03 µg/mL
NC12CC3CC(CC(C3)C1)C2,Influenza B virus,MDCK,,plaque count,Guangdong/5/94,EC50,,>50 µg/mL
O=c1[nH]c(=O)n([C@H]2C[C@H](O)[C@@H](CO)O2)cc1/C=C/Br,Epstein-Barr virus,P3HR-1,,,,inhibition,0.1 µM,3%
CN(C)[C@@H]1C(=O)C(C(N)=O)=C(O)[C@@]2(O)C(=O)C3=C(O)c4c(O)c(NC(=O)CNC(F)(F)F)cc(F)c4C[C@H]3C[C@@H]12,Streptococcus pneumoniae,,,agar diffusion,160-tet,EC50,,1 µg/mL
CCO/N=C/c1ccc(OCCC2CCN(c3ccc(C)nn3)CC2)cc1,Rhinovirus,KB,,neutral red,41467 (ICAM-1 receptor group 89),EC50,,0.002 µM
CCOC1c2cc(OC)c(OC)cc2-c2ccc3cc4c(cc3c2N1C)OCO4,Saccharomyces cerevisiae,,,,Mutant ΔERG6 ΔTOP1,MIC,,3.12 µg/mL
CCCSc1ccc2nc(NC(=O)OC)[nH]c2c1,Vittaforma corneae,RK-13,,,,inhibition,0.01 µg/mL,14%
Nc1ncnc2c1ncn2C[C@H](CO)OCP(=O)(O)O,Adenovirus,,,virus yield,adenoid 6 (TYPE 2),EC90,,0.6 µg/mL
COc1cc(NCc2cnc3nc(N)nc(N)c3c2C)cc(OC)c1,Encephalitozoon intestinalis,RK-13,,,,inhibition,0.1 µg/mL,57.2%
Nc1nc(N)c2ncn(CCOCP(=O)(O)O)c2n1,Varicella zoster virus,HEL,,plaque count,ACV-resistant,EC50,,0.94 µg/mL
OC(Cn1cncn1)(Cn1cncn1)c1ccc(F)cc1F,Candida albicans,,,broth dilution,YL 317,MIC,,256 µg/mL
CCOC(=O)Nc1cc2c(c(N)n1)N=C(c1cccc(OC)c1)CS2,Encephalitozoon intestinalis,RK-13,,,,inhibition,0.01 µg/mL,9.1%
Nc1ncnc2c1ncn2C[C@@H](CO)OCP(=O)(O)O,Adenovirus,,,virus yield,adenoid 6 (TYPE 2),EC90,,2 µg/mL
CC[C@@]1(OC(=O)CN)C(=O)OCc2c1cc1n(c2=O)Cc2cc3ccccc3nc2-1,Saccharomyces cerevisiae,,,,Mutant ΔERG6 ΔTOP1,MIC,,>100 µg/mL
Nc1ccn(C[C@@H](CO)OCP(=O)(O)O)c(=O)n1,Varicella zoster virus,HEL,,plaque count,PFA-resistant/A,EC50,,0.14 µg/mL
CCOC(=O)Nc1cc2[nH]c(-c3ccc4c(c3)OCO4)nc2c(NC(c2ccccc2)c2ccccc2)n1,Encephalitozoon intestinalis,RK-13,,,,inhibition,1 µg/mL,59%
CC(C)(CO)C(=O)SCCOP(=O)(NCc1ccccc1)OC[C@H]1O[C@@H](n2cnc3c(=O)[nH]c(N)nc32)[C@](C)(O)[C@@H]1O,Hepatitis C virus,Replicon cells,Y93C,replicon,GT1a,fold resistance,,1.06
O=C(O)CP(=O)(O)O,Varicella zoster virus,HEL,,plaque count,PMEDAP-resistant,EC50,,16.6 µg/mL
CCOc1ccc(OCC)c(NCc2cnc3nc(N)nc(N)c3c2C)c1,Encephalitozoon intestinalis,RK-13,,,,inhibition,0.01 µg/mL,0%
C[C@@H]1CN(c2c(F)c(N)c3c(=O)c(C(=O)O)cn(C4CC4)c3c2F)C[C@H](C)N1,Streptococcus pneumoniae,,,,1L1 (PARC mutation SER79PHE),MIC,,0.5 µg/mL
CC[C@H]1OC(=O)[C@H](C)[C@@H](O[C@H]2C[C@@](C)(OC)[C@@H](O)[C@H](C)O2)[C@H](C)[C@@H](O[C@@H]2O[C@H](C)C[C@H](N(C)C)[C@H]2O)[C@](C)(OC)C[C@@H](C)C(=O)[C@H](C)[C@@H](O)[C@]1(C)O,Mycobacterium abscessus,,,broth dilution,X40,MIC,,1 µg/mL
CC[C@@]1(OC(=O)CN)C(=O)OCc2c1cc1n(c2=O)Cc2c-1nc1cc3c(cc1c2CCl)OCO3,Saccharomyces cerevisiae,,,,Mutant ΔERG6,MIC,,3.12 µg/mL
CN[C@@H]1[C@H](O[C@H]2[C@H](O[C@H]3[C@H](O)[C@@H](O)[C@H](N=C(N)N)[C@@H](O)[C@@H]3N=C(N)N)O[C@@H](C)[C@]2(O)C=O)O[C@@H](CO)[C@H](O)[C@H]1O,Klebsiella pneumoniae,,,agar diffusion,ESBL-75799,zone,250 µg/disc,22 mm
CC[C@@]1(O)C(=O)OCc2c1cc1n(c2=O)Cc2cc3c(N)c4c(cc3nc2-1)OCO4,Saccharomyces cerevisiae,,,,JHY6-1C,MIC,,>100 µg/mL
COc1cc(Cc2cnc(N)nc2N)cc(OC)c1OCCCNc1ccc(S(=O)(=O)c2ccc(N)cc2)cc1,Mycobacterium ulcerans,,,,Isolate 94-886,MBC,,8 µg/mL
C#CC[C@@H](C(=O)N[C@H](/C=C/C(=O)OCC)C[C@@H]1CCNC1=O)n1cccc(NC(=O)c2cc(C)on2)c1=O,Rhinovirus,H1-HELA,,cytopathic effect / XTT,Serotype 73,EC50,,0.059 µM
O=C(Nc1ncc([N+](=O)[O-])s1)c1ccccc1O,Vittaforma corneae,RK-13,,,,inhibition,0.01 µg/mL,57.1%

A second listing of 3 rows from above:

structure,species,cell line,changes,method,strain or isolate,endpoint,tested at,result
COc1cc(Cc2cnc(N)nc2N)cc(OC)c1OCCCNc1ccc(S(=O)(=O)c2ccc(N)cc2)cc1,Mycobacterium ulcerans,,,,Isolate 94-886,MBC,,8 µg/mL
CO[C@H]1/C=C/O[C@@]2(C)Oc3c(C)c(O)c4c(O)c(c(/C=N/N5CCN(C)CC5)c(O)c4c3C2=O)NC(=O)/C(C)=C\C=C\[C@H](C)[C@H](O)[C@@H](C)[C@@H](O)[C@@H](C)[C@H](OC(C)=O)[C@@H]1C,Staphylococcus aureus,,,,20 strains (methicillin-susceptible),MIC90,,0.0078 µg/mL
O=C(Nc1ncc([N+](=O)[O-])s1)c1ccccc1O,Vittaforma corneae,RK-13,,,,inhibition,0.01 µg/mL,57.1%

Neighbouring rows are from separate reports. ECn is the concentration giving n% inhibition of infection, replication or growth. Fold resistance: result on the changed form divided by that on wild type. An empty or dashed field is not shown. MIC50, MIC90 and the like: level of inhibition, or share of isolates inhibited. Percent inhibition refers to the dose given; in toxicity tests it is the harm to the cells.